Consider 20 test systems from the supplement of paper PMC3578754.

Fold change is the IC50 on the isolate divided by the IC50 on a reference virus; 1 = unchanged, higher = more resistant. Changes are given against the subtype B consensus. No active / inactive call. The values were gathered from many studies (numbered anew) with different assays, which the source does not name. Most viruses are clinical isolates; some are laboratory strains or clones with known resistance changes. Isolates with mixed residues are left out; stretches that were not sequenced show no change. Round top values that many isolates share are read here as limits; other very high values and 0.1 may be limits too.

What all share (assay): fold change of IC50 against reference virus; higher = more resistant
Compound in one test: Cc1ccnc2c1NC(=O)c1cccnc1N2C1CC1 [nevirapine]
As to the method: (§1)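 Cell-culture drug susceptibility tests of virus bearing the reverse transcriptase of each isolate, gathered from many studies.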

Compound in another test: CC(C)Nc1cccnc1N1CCN(C(=O)c2cc3cc(NS(C)(=O)=O)ccc3[nH]2)CC1 [delavirdine]
As to the method: as §1

Compound in another test: O=C1Nc2ccc(Cl)cc2[C@@](C#CC2CC2)(C(F)(F)F)O1 [efavirenz]
The method, then: as §1

For the test system “HIV-1 isolate 1337 (reverse transcriptase changes: K20R V21I V35T T39G V60I K103N K122E D123N K173S Q174K D177E V179I Q207A R211N V245Q A272P E291D I293V P294T E312D D324E I326R, study 14)”, the “fold change of IC50 against reference virus” value (shortened to “fold change of IC50”) was 11 with nevirapine, 22 in the test with delavirdine and 6.6 with efavirenz.

As for “HIV-1 isolate 1056 (reverse transcriptase changes: V35T E40D I50V K122E D123S I135T I142T K173S D177E V179I Q207A R211S F214L V245Q A272P E291D I293V P294T L310I E312D D324E, study 14)”, the “fold change of IC50” value with nevirapine was found to be 0.3; with delavirdine, 0.2; with efavirenz it was 0.2.

Turning to “HIV-1 isolate 245 (reverse transcriptase changes: K11T K20R V21I V35T T39R D123N T165I K173S D177E V179I Y181C G196E I202V Q207A R211K V245Q E248D S251I K277R T286A E291D P294T, study 14)”, the “fold change of IC50” value was found to be 148 with nevirapine, 17 with delavirdine and 0.7 with efavirenz.

Turning to “HIV-1 isolate 572 (reverse transcriptase changes: K11T K20R V21I V35T T39K K43E D123N K173T Q174K D177E V179I G190A I202V Q207A R211S V245Q E248D T286A E291D V292I I293V P294Q E312D, study 14)”, the “fold change of IC50” value with nevirapine was 208; with delavirdine, 0.3; with efavirenz, 6.5.

As for “HIV-1 isolate 939 (reverse transcriptase changes: K102Q V106A S162C K277R, study 110)”, the “fold change of IC50” value is 64 with nevirapine, 5 with delavirdine and 1.7 with efavirenz.

Regarding “HIV-1 isolate 1434 (reverse transcriptase changes: V35T E40D I50V K122E D123S I135T I142T K173S D177E V179I Y181C Q207A R211S F214L V245Q A272P E291D I293V P294T L310I E312D D324E, study 14)”, the “fold change of IC50” value in the test with nevirapine is 55; with delavirdine, 30; with efavirenz, 0.9.

On to “HIV-1 isolate 339 (reverse transcriptase changes: K101E K102Q S162C G190S K277R, study 110)”, for which the “fold change of IC50” value with nevirapine is 500; with delavirdine, 1.4; with efavirenz, ≥ 500.

Take “HIV-1 isolate 1626 (reverse transcriptase changes: K11T K20R V21I V35T T39K K43E D123N K173T Q174K D177E V179I I202V Q207A R211S V245Q E248D K281R T286A E291D V292I I293V E312D, study 14)”: the results for the “fold change of IC50” value with nevirapine, with delavirdine and with efavirenz were 0.7, 0.7 and 0.6, respectively.

Regarding “HIV-1 isolate 1244 (reverse transcriptase changes: K102Q E138A S162C K277R, study 53)”, the “fold change of IC50” value with nevirapine, with delavirdine and with efavirenz was 1 in each case.

For the test system “HIV-1 isolate 965 (reverse transcriptase changes: K102Q K103N S162C K277R, study 110)”, the “fold change of IC50” value in the test with nevirapine was 55; with delavirdine, 52; with efavirenz it was 26.

Consider “HIV-1 isolate 955 (reverse transcriptase changes: A98G K102Q S162C Y181C K277R, study 53)”, for which the “fold change of IC50” value was 680 in the test with nevirapine, 190 with delavirdine and 7 with efavirenz.

For the test system “HIV-1 isolate 1401 (reverse transcriptase changes: K103N K122E E169D T200E Q207E, study 25)”, the “fold change of IC50” value with nevirapine was 50; with delavirdine, 150; with efavirenz it was 34.

With “HIV-1 isolate 15 (reverse transcriptase changes: K102Q K103N S162C P225H K277R, study 53)”, the “fold change of IC50” value with nevirapine amounted to 150; with delavirdine, 14; with efavirenz, 167.

Regarding “HIV-1 isolate 1532 (reverse transcriptase changes: V35T V60I K103N D121H K122E I135T K173L Q174K D177E V179I T200A Q207A R211S V245K D250E T286A E291D V292I I293V E312D K323R, study 14)”, the entries for the “fold change of IC50” value with nevirapine, in the test with delavirdine and in the test with efavirenz were 62, 73 and 23, respectively.

For “HIV-1 isolate 266 (reverse transcriptase changes: L100I K102Q S162C K277R, study 110)”, the “fold change of IC50” value worked out at 3.1 in the test with nevirapine, 30 in the test with delavirdine and 10 with efavirenz.

In the case of “HIV-1 isolate 372 (reverse transcriptase changes: K102Q K103N S162C P236L K277R, study 53)”, the “fold change of IC50” value with nevirapine amounted to 165; with delavirdine, 190; with efavirenz, 5.

In the case of “HIV-1 isolate 413 (reverse transcriptase changes: E6D V35T V60I K122E D123S I135T K166R K173L Q174K D177E I178M V179I E194D G196E Q207A R211S V245M D250E K277R T286A E291D I293V P294T E312D, study 14)”, the entries for the “fold change of IC50” value with nevirapine, in the test with delavirdine and with efavirenz were 0.6, 0.4 and 0.5, respectively.

With “HIV-1 isolate 1420 (reverse transcriptase changes: V21I V35T T39S K49Q E138G K173S Q174K D177E V179I Y181C Q207A R211N V245Q A272P E291D I293V P294T E312D D324E I326R, study 14)”, the “fold change of IC50” value with nevirapine came to 23; with delavirdine it was 6.6; in the test with efavirenz it was 0.3.

Regarding “HIV-1 isolate 727 (reverse transcriptase changes: A98G K102Q S162C G190S K277R, study 53)”, the “fold change of IC50” value worked out at 680 with nevirapine, 1 with delavirdine and 270 with efavirenz.

Regarding “HIV-1 isolate 398 (reverse transcriptase changes: V35T T39L K103N K122E D123G A158S K173S Q174K D177E I178V V179I T200A I202V Q207A V245M K277R L282C R284K T286V I293V, study 14)”, the “fold change of IC50” value in the test with nevirapine stood at 29; in the test with delavirdine it was 50; with efavirenz, 17.
